The text below walks through data of patent publication US20250382354A1 (INSTITUTE FOR RESEARCH IN BIOMEDICINE IRB, published 2025).

One test has as its target MERS S ectodomain (MERS). Put plainly: ELISA on coated S.
A further test has as its target T1, CRCoV-240/05 FP peptide (CRCoV-240/05).
T1 construct: domain: FP peptide
In words: peptide ELISA.

In a further test the target is T2, CRCoV-240/05 HR2 peptide (CRCoV-240/05).
T2 construct: domain: HR2 peptide
In words: peptide ELISA.

B1: hr2.019 (antibody, V domains shown)
VH: EVQLVESGGGLVKPGGSLRLSCAASGSSVIDVWMNWVRQAPGKGLEWVGRIKTKASGAATDYGAPVKGRFTISRDDSKNLSYLQMNSLRAEDTGIYYCTTSPLPNFDYWGRGTLVTVSS
VL: DIVMTQSPDFLAVSLGETATINCRSSQSVFYFANNKNYLAWYQQKPGQPPKLLIYWASKRESGVPDRFSGSGSGTDFTLTISSLQAEDVATYYCQQYSSPAITFGPGTKVDIK
On to B1, for which the EC50 with MERS S ectodomain worked out at 0.506 µg/mL.

B2: fp.002 (antibody, V domains shown)
VH: VQLVESGGGVVQPGTSLRLSCAGSGFNFDNYAIHWVRQAPGQGLEWVAIISYEARNKKYAGSVTGRFSISRDNSKSMVYLQMDSLRGEDTAVYYCARDLFLSDYDRSGYDPTRGGFDLWGQGTLVTVSS
VL: EIVMTQSPATLSVSPGERATLSCRASQSVSSSLAWYQHKLGQAPRLLIYGASTRATGIPGRFSGSGSGTEFTLTISSLQSEDVAIYYCQQYGDWPLVTFGGGTKVEIK
With B2, the EC50 was determined as 0.0158 µg/mL with CRCoV-240/05 FP peptide and 0.0508 µg/mL with MERS S ectodomain.

B3: fp.005 (antibody, V domains shown)
VH: VQLVESGGGVVQPGNSLRLSCAASGFRFNNYAMHWVRQAPGKGLEWVAIISYEARNEKYADSVKGRFSISRDNAKNTLYLQMNSLRADDTGVYYCARDLFLSDYDTSGYDRTRGGFDYWGQGALVTVSS
VL: EIVMTQSPATLSVSPGERATLSCRASQSVSNGLAWYQHRFGQPPRLLIYGASTRATGIPTRFSGSGSGTEFTLTISSLQSEDFAVYYCQQYDDWPLITFGGGTKVEIK
Regarding B3, the EC50 with CRCoV-240/05 FP peptide turned out to be 0.0259 µg/mL; in the test with MERS S ectodomain, 0.0513 µg/mL.

B4: fp.008 (antibody, V domains shown)
VH: VQLVESGGGVVQPGRSLRLSCRASGFRFNNYAMHWVRQAPGKGLEWVAIISYEARNEKYAASVKGRFSISRDNAKNTLYLQMNSLRPEDTAIYYCARDVFLSDYDQSGYDVTRGGFDYWGQGTLVTVSS
VL: EIVMTQSPATLSVSPGESATLSCRASQSVSSSLAWYQHKFGQAPRLLIYGASTRATGIPDRFSGSGSGMEFTLTISSLQSEDVAIYYCQQYGDWPLVTFGGGTKVEIK
Consider B4, for which the results for the EC50 with CRCoV-240/05 FP peptide and with MERS S ectodomain were 0.026 µg/mL and 0.0592 µg/mL, respectively.

B5: fp.003 (antibody, V domains shown)
VH: VQLVESGGGVVQPGTSLRLSCTASGFSFSNYAMHWVRQAPGKGLEWVAIISFDTRNKEFADSVKGRFSISRDNSKNSLNLQMNSLRPEDTGVYYCARDLFLSDYDSRGYEPSRGGFDYWGQGTLVTVSS
VL: EIVMTQSPATLSVSPGERATLSCRASQSVSSSLAWYQQKLGQPPRLLIYGASTRATGIPARFSGSGSGTEFTLTISSLKSEDSAVYYCQQYNDWPLLSFGGGTKVEIK
As to B5, the results for the EC50 with CRCoV-240/05 FP peptide and in the test with MERS S ectodomain were 0.0266 µg/mL and 0.0665 µg/mL, respectively.

B6: hr2.012 (antibody, V domains shown)
VH: QVQLVQSGAEVKKPGASVKVSCKASGYTFTSHYIHWVRQAPGQGLEWMGIIKPSGGNTIYAQTFQGRVTMTRDTSTSTVYMELRSLTSDDTAVYYCARDQDHGLQRWGQGTLVTVSS
VL: QSVLTQPPSVSAPPGQKVTISCSGSSSNIGNNFVSWYQQLPGTAPKLLIYDNIERPSGIPDRFSGSRSGTSATLGITGLQTGDEADYYCGTWDTSLGAWVFGGGTKVTVL
B6: the EC50 with CRCoV-240/05 HR2 peptide was found to be 0.0273 µg/mL; with MERS S ectodomain, 0.303 µg/mL.

B7: hr2.015 (antibody, V domains shown)
VH: QVQLVQSGAEVKKPGASVKVSCKASGYTFSSYYVNWVRQAPGQGLEWLGIINRSGSSTIYAQKFQGRVTMTRDTSTSTVYLELSSLRSEDTAVYYCARDQDHALHWGQGTLVTVSS
VL: QSVLTQPPSVSAAPGQKVTISCSGSSSNIGSNYVSWYQQLPGTAPKLLIYDNSERPSGIPDRFSGSRSGTSATLGITGLQTGDEADYYCGTWDTSLSAWVFGGGTKLTVL
On to B7, for which the EC50 in the test with CRCoV-240/05 HR2 peptide was 0.0575 µg/mL; with MERS S ectodomain it was 0.686 µg/mL.

B8: hr2.013 (antibody, V domains shown)
VH: QVQLVQSGAEVKKPGASVKISCKASGYTFTNNYMNWVRQAPGQGLEWMGIIKPSSGSTIYAHKFQGRVTMTRDTSTSTVYMEVRSLTSEDTAVYYCARDQDHGLQNWGQGTLVTVSS
VL: QSVLTQPPSVSAASGQKVTIYCSGSSSNIASNFVSWYQQFPGTAPKLLIYDNNQRPSGIPDRFSGSRSGTSATLGITGLQTGDEADYYCGTWDTSLGAWVFGGGTKLTVL
For B8, the EC50 with CRCoV-240/05 HR2 peptide was 0.0573 µg/mL; in the test with MERS S ectodomain, 0.168 µg/mL.

B9: hr2.090 (antibody, V domains shown)
VH: EVQLLESGGGLVQPGGSLRLSCAASGVTFSRYAMSWVRQAPGKGLEWVSTISGGGGGTYYADSVKGRFTISRDNSKNTLYLQMNSLRAEDTAVYYCATLLTVPGPYYFEYWGQGTLVTVSS
VL: EIVLTQSPGTLSLSPGERATLSCRASQSVSSSYLAWYQQKPGQAPRLLIYGASSRATGIPDRFSGSGSGTDFTLTISRLESEDFAVYYCQHSRFTFGPGTRVDIK
As to B9, in the test with CRCoV-240/05 HR2 peptide, the response was half-maximal at 0.658 µg/mL (EC50).

B10: hr2.027 (antibody, V domains shown)
VH: EVQLVQSGAEVKKPGESLKISCKGSGYSFANYWIAWVRLMPGKGLEWMGFIFPGDSDTRYSPSFQGQVTISADKSITTAYLHWSSLKASDTAIYFCARRRGNSGNHDPYGMDVWGHGTTVTVSS
VL: not shown
In the case of B10, in the test with CRCoV-240/05 HR2 peptide, a half-maximal response (EC50) required 0.0413 µg/mL.

B11: fp.010 (antibody, V domains shown)
VH: EVQLLESGGGLVQPGGSLRLSCAASGFTFSTYAMNWVRQAPGKGLEWVSAISSSGLSTQYADSVRGRFTISRDTSKNTLYLHMNSLRAGDTAVYYCAKVEYSGYDPRGPFDSWGQGTLVTVSS
VL: DIQMTQSPSTLSASVGDRVTITCRASQSISGWLAWYQQKPGRAPKLLIYKASSLERGVPSRFSGSGSGTEFTLTISSLQPDDFATYYCQEYSSYPLCTFGQGTKLEIK
B11: the figures for the EC50 with CRCoV-240/05 FP peptide and in the test with MERS S ectodomain were 0.0406 µg/mL and 1.96 µg/mL, respectively.

B12: fp.004 (antibody, V domains shown)
VH: VQLVESGGGVVQPGTSLRLSCVASGFTFSNYAMHWVRQAPGKGLEWVAIISFDTRNTASAASVKGRFNISRDNSKNSLYLQMNSLRPEDTGVYYCARDLFLSDYDSRGYDPITGGFDCWGQGTLVTVSS
VL: EIVMTQSPAALSVSPGEGATLSCRASQSVGSRLAWYQQKLGRPPRLLIYGASTRATGIPARFSGSGSGTEFTLTISSLQSEDFAVYYCQQYNDWPLLTFGGGTKVKIK
Take B12: the results for the EC50 with CRCoV-240/05 FP peptide and in the test with MERS S ectodomain were 0.0262 µg/mL and 0.0649 µg/mL, respectively.

B13: hr2.017 (antibody, V domains shown)
VH: EVQLVESGGGLVQPGGSLRLSCAVSGFAFSSSWMHWIRQAPGRGLVWVSRINRDGSTTDYADSVKGRFTISRDNAKATLYLQMNSLRAEDTAVYYCATMGFDYWGQGALVTVSS
VL: DIVMTQSPDSLAVSLGERATINCKSSQNVLYSSNNKNHLSWYQQKPGQPPKLLIYWASTRKSGVPDRFSGSGSGTDFTLTINSLQAEDVAVYYCQQYFSTPNTFGQGTKLEIK
For B13, in the test with CRCoV-240/05 HR2 peptide, the EC50 worked out at 0.018 µg/mL.

B14: hr2.020 (antibody, V domains shown)
VH: EVQLVQSGAEVKKPGESLKISCKGSGYRFASHWIGWVRQMPGKGLQWMGIIYPGDSDTKYSPSFQGQVTISADKSINTVYLHWTSLKASDTAVYYCARRPPHLDGGDSPIRFDHWGQGTLVTVSS
VL: QSVLTQPPSASGTPGQRVTISCSGSRSNIGSNDVYWYQQFPGTAPKLLIYRNNQRPSGVPDRFSGSKSGTSASLAISGLRSEDEADYYCATWDDRLTGVFGGGTKLTVV
B14 returned an EC50 with CRCoV-240/05 HR2 peptide of 0.0409 µg/mL.

B15: fp.001 (antibody, V domains shown)
VH: VQLVESGGGVVQPGRPLRLSCSGSGFIFSNYAMHWVRQAPGKGLEWVAIISFDARNKRYADSVEGRFTISRDNSKNILYLQMNSLRLEDSAVYFCARDLFLSDYDNGVYDPTRGGFDYWGQGTLVTVSS
VL: EIVMTQSPATLSLSPGERATLSCRASQSVNNRLAWYQQKLGQPPRLLISGASTRATGIPARFTGSGSGTEFTLTISSLQSEDFAVYYCQQYHDWPLLSFGGGTKVEIK
Turning to B15, the EC50 with CRCoV-240/05 FP peptide came out at 0.0319 µg/mL; in the test with MERS S ectodomain, 0.0433 µg/mL.

B16: hr2.021 (antibody, V domains shown)
VH: QVQLVQSGAEVKKPGASVKVSCKASEAIFSGSYLHWVRQAPGQGLEWMGIITPSGDKTFYAQRFQGRLTMTRDTSTNTLHMHLSGLNSEDTAMYYCARQADKGGWDYWGQGTLVTVSS
VL: EIVLTQSPGTLSLSPGERATLSCRASQSVTSNYVAWYQQKPGQAPRLLIYGASTRATGIPDRFSGGGSGTDFTLTITRLEPEDFAVYYCQQYGSSPPTFTFGPGTKVDIK
B16: the half-maximal effective concentration (EC50) came out at 0.0245 µg/mL with CRCoV-240/05 HR2 peptide and 0.0584 µg/mL in the test with MERS S ectodomain.

B17: hr2.024 (antibody, V domains shown)
VH: QVQLVQSGAEVKKPGASVKVSCKASEDIFTDSYLHWVRQAPGQGLEWMGIITPSGDKTFYAQQFQGRLTMTRDPSTNTLYMFLSGLRSDDTAMYFCARQAEKGGWDYWGHGTLVTVSS
VL: EIVLTQSPGTLSLSPGQRATLSCRSSQTITSNYLAWYQQRPGQAPRLLIYGASIRATGIPDRFSGSGSGTDFTLTISRLEPEDFAVYYCQQYGSSPPTFIFGPGTKVDIK
For B17, the EC50 came to 0.0549 µg/mL with CRCoV-240/05 HR2 peptide and 0.0802 µg/mL with MERS S ectodomain.

B18: hr2.094 (antibody, V domains shown)
VH: EVQLVESGGGLVQPGGSLRLSCAASGFTFSTFWMTWVRQAPGKGLEWVANIKSDGSEKYYVDSVKGRFTISRDNAKNSLYLQMNSLRAEDTAVYYCATWFGLHWGQGTLVTVSS
VL: DIVMTQSPDSLAVSLGERASINCKSSQTVLYSSNNKNYLAWYQQKPGQPPKLLIHWASTRDSGVPDRFSGSGSGTDFTLTISSLQAEDVAVYYCQQYHRIPWTFGRGTKVEIK
On to B18, for which the concentration giving a half-maximal response (EC50) was determined as 0.0141 µg/mL in the test with CRCoV-240/05 HR2 peptide and 0.124 µg/mL in the test with MERS S ectodomain.

B19: hr2.086 (antibody, V domains shown)
VH: EVQLLESGGGLVQPGGYLRLSCAASGFTFSSYAMSWVRQAPGKGLEWVSVISGGGGSAYYADSVKGRFTISRDNSKNTLYLQMNSLRAEDTAVYYCAKIGMILVFDYWGQGTLVTVSS
VL: EIVLTQSPGTLSLSPGERATLSCRASQSVSNNYLAWYQQKPGQAPRLLISGASSRATGIPDRFSGSGSGTDFTLTISRLEPEDFAVYYCQQYGSSPPTFGQGTKVEIK
For B19, the EC50 with CRCoV-240/05 HR2 peptide came out at 0.246 µg/mL; with MERS S ectodomain it was 1.16 µg/mL.
